A mixed list of measured activities; the numbers were collected in NIAID ChemDB.

All rows: enzyme or target tests; protein: CCR5; measure: IC50

An empty or dashed field is not shown.

structure | changes | method | value
CN(CC(CCN1CCC2(CC1)CS(=O)(=O)c1ccccc12)c1ccccc1)S(=O)(=O)c1ccccc1 |  | radioligand binding / binding | 0.032 µM
CCN(C(=O)OCc1ccc([N+](=O)[O-])cc1)C1CCN(CC[C@](C)(CN(C)S(=O)(=O)c2ccccc2)c2ccccc2)CC1 |  | radioligand binding / binding | 0.002 µM
CN1CC(C(=O)N(CCCN2CCC(C(=O)c3ccc(F)cc3)CC2)c2ccccc2)CC1=O |  | radiometric | 1.9 µM
CCO/N=C(\c1ccc(Br)cc1)C1CCN(C2(C)CCN(C(=O)c3c(C)cc[n+]([O-])c3C)CC2)CC1 |  | radiometric | 0.01 µM
C/C=C(\C)[C@@H]1C=C[C@@H]2C[C@H](C)C[C@H](C)[C@H]2[C@@H]1/C(O)=C1/C(=O)N[C@H](C[C@@](C)(O)C(=O)O)C1=O |  | radiometric | 0.079 µM
Cc1cccc(C(CCN2CCC(c3ccccc3)CC2)CN(C)S(=O)(=O)c2ccccc2)c1 |  | radioligand binding / binding | 0.68 µM
C=CCN(C(=O)OCc1ccc([N+](=O)[O-])cc1)C1CCN(CCC(CO)(CN(C)S(=O)(=O)c2ccccc2)c2ccccc2)CC1 |  | radioligand binding / binding | 0.002 µM
Cc1cc(-c2ccccc2)nn1C1CCN(C[C@H]2CN([C@@H](C(=O)O)C3CCCCC3)C[C@@H]2c2ccccc2)CC1 |  | radiometric | <2 µM
C[C@H](NC(=O)[C@H](CCCN=C(N)N)NC(=O)c1ccc(CNCc2ccccn2)cc1)c1cccc2ccccc12 |  | radiometric | >10 µM
CCCN(C(=O)OCc1ccccc1)C1CCN(CC[C@](C)(CN(C)S(=O)(=O)c2ccccc2)c2ccccc2)CC1 |  | radioligand binding / binding | 0.002 µM
CN(CC(c1ccccc1)C(C)(C)CN1CCC(c2ccccc2)CC1)S(=O)(=O)c1ccccc1 |  | radioligand binding / binding | >10 µM
CCN(C(=O)Cc1ccc(S(C)(=O)=O)cc1)C1CCN(CC[C@H](c2ccc(S(C)(=O)=O)cc2)c2cc(F)cc(Cl)c2)CC1 |  | radiometric | 0.0011 µM
CCN(C(=O)OCc1ccccc1)C1CCN(CCC(CN(C)S(=O)(=O)c2ccccc2)(c2ccccc2)C(F)(F)F)CC1 |  | radioligand binding / binding | >0.1 µM
CN(CC(CCN1CCC2(CC1)CSc1ccccc12)C1CCCCC1)S(=O)(=O)c1ccccc1 |  | radioligand binding / binding | <10 µM
C=CCN(C(=O)OCc1ccc([N+](=O)[O-])cc1)C1CCN(CC[C@](C)(CN(C)S(=O)(=O)c2ccccc2)c2ccccc2)CC1 |  | radioligand binding / binding | 0.001 µM
CC(C)C(=O)N1C[C@H](CN2CCC(c3ccccc3)CC2)[C@@H](c2ccccc2)C1 | CCR5-D276A | radiometric | 0.35 µM
CCN(C(=O)Cc1ccc(S(C)(=O)=O)cc1)C1CCN(CC[C@H](c2ccc(S(C)(=O)=O)cc2)c2cccc(F)c2F)CC1 |  | radiometric | 0.02 µM
c1ccc(CCCC2CCN(CC3[C@@H](c4ccccc4)CN4OC5(CCCCC5)C[C@@H]34)CC2)cc1 |  |  | <1 µM
Cc1cc(C)cc(C(CCN2CCC(c3ccccc3)CC2)CN(C)S(=O)(=O)c2ccccc2)c1 |  | radioligand binding / binding | 0.18 µM
CN(C[C@@H](CCN1CCC(c2ccc(Cl)cc2)CC1)c1cccc(Cl)c1)S(=O)(=O)c1ccccc1 |  | radioligand binding / binding | 0.1 µM
Cc1cccc(C)c1C(=O)N1CCC(N2CCN([C@@H](C)c3ccc(Cc4ccc5c(c4)OCO5)cc3)[C@@H](C)C2)CC1 |  | binding / radiometric | 0.031 µM
CN(C)C(=O)c1ccccc1C(=O)N1CCC(C)(N2CCC(N(c3ccccc3)c3ccccc3)CC2)CC1 |  | radiometric | >1 µM
CCN(C(=O)Cc1ccc(S(C)(=O)=O)cc1)C1CCN(CC[C@H](c2ccc(S(C)(=O)=O)cc2)c2cccc(F)c2)CC1 |  | radiometric | 0.00022 µM
CCCN(C(=O)Cc1ccccc1)C1CCN(CCC(CN(C)S(=O)(=O)c2ccccc2)c2ccccc2)CC1 |  | radioligand binding / binding | 0.003 µM
CCN(C(=O)OCc1ccccc1)C1CCN(CC[C@](C)(CN(C)S(=O)(=O)c2ccccc2)c2ccccc2)CC1 |  | radioligand binding / binding | 0.00055 µM
CCCN(C(=O)COc1ccccc1)C1CCN(CCC(CN(C)S(=O)(=O)c2ccccc2)c2ccccc2)CC1 |  | radioligand binding / binding | 0.005 µM
CC[C@H](C)[C@H](C(=O)O)N1C[C@H](CN2CCC(c3cc(Cc4cccc(CN)c4)nn3CC)CC2)[C@@H](c2cccc(F)c2)C1 |  | radiometric | 0.0005 µM
CN(C[C@@H](CCN1CCC2(CC1)CSc1ccccc12)c1ccc(F)cc1)S(=O)(=O)c1ccccc1 |  | radioligand binding / binding | <10 µM
CCCN(C(=O)OCc1ccc([N+](=O)[O-])cc1)C1CCN(CC[C@](CO)(CN(C)S(=O)(=O)c2ccccc2)c2ccccc2)CC1 |  | radioligand binding / binding | 0.001 µM
CCN(C(=O)Cc1ccc(S(C)(=O)=O)cc1)C1CCN(CC[C@H](c2ccc(S(C)(=O)=O)cc2)c2cc(F)ccc2F)CC1 |  | radiometric | 0.32 µM
CCN(C(=O)OCc1ccccc1)C1CCN(CCC(COC)(CN(C)S(=O)(=O)c2ccccc2)c2ccccc2)CC1 |  | radioligand binding / binding | 0.0023 µM
C=CCN(C(=O)OCc1ccc([N+](=O)[O-])cc1)C1CCN(CC[C@](C)(CN(C)S(=O)(=O)c2ccccc2)c2ccccc2)CC1 |  | radiometric | 0.0017 µM
CN(C[C@@H](CCNCc1ccccc1)c1cccc(Cl)c1)S(=O)(=O)c1ccccc1 |  | radioligand binding / binding | >10 µM
CCN(C(=O)Cc1ccc(S(C)(=O)=O)cc1)C1CCN(CC[C@H](c2ccc(S(C)(=O)=O)cc2)c2c(F)cccc2F)CC1 |  | radiometric | 0.56 µM
CCCCCCN(c1ccccn1)C1CCN(C[C@H]2CN(C(=O)C3CCCCC3)C[C@@H]2c2ccccc2)CC1 |  | radioligand binding / binding | <1 µM
Cc1ccc(-c2ccc3c(c2)C=C(C(=O)Nc2ccc(C[N+](C)(C)C4CCOCC4)cc2)CCC3)cc1 |  | radioligand binding / binding | 0.0014 µM
CCCN(C(=O)CCc1ccccc1)C1CCN(CCC(CN(C)S(=O)(=O)c2ccccc2)c2ccccc2)CC1 |  | radioligand binding / binding | 0.022 µM
CCN(C(=O)OCc1ccccc1)C1CCN(CCC(CN2C(=O)N[C@H](Cc3c[nH]c4ccccc34)C2=O)c2ccccc2)CC1 |  | radioligand binding / binding | 0.013 µM
CCN(C(=O)Cc1ccc(S(C)(=O)=O)cc1)C1CCN(CC[C@H](c2ccc(S(C)(=O)=O)cc2)c2cccc(C(F)(F)F)c2)CC1 |  | radiometric | 0.02 µM
CN(CC(CCN1CCC(NC(=O)NCc2ccccc2)CC1)c1ccccc1)S(=O)(=O)c1ccccc1 |  | radioligand binding / binding | 0.075 µM
C=CCN(C(=O)OCc1ccccc1)C1CCN(CC[C@](C)(CN(C)S(=O)(=O)c2ccccc2)c2ccccc2)CC1 |  | radioligand binding / binding | 0.001 µM

Repeating the final 3 entries:

structure,changes,method,value
CCN(C(=O)Cc1ccc(S(C)(=O)=O)cc1)C1CCN(CC[C@H](c2ccc(S(C)(=O)=O)cc2)c2cccc(C(F)(F)F)c2)CC1,,radiometric,0.02 µM
CN(CC(CCN1CCC(NC(=O)NCc2ccccc2)CC1)c1ccccc1)S(=O)(=O)c1ccccc1,,radioligand binding / binding,0.075 µM
C=CCN(C(=O)OCc1ccccc1)C1CCN(CC[C@](C)(CN(C)S(=O)(=O)c2ccccc2)c2ccccc2)CC1,,radioligand binding / binding,0.001 µM

ICn: concentration for n% inhibition. Lines come from different laboratories, so protocols vary.